From patent US20060280723A1 (priority 2003, published 2006)

Test system: SARS-HCoV
Type: cell-based, SARS human coronavirus (SARS-HCoV)

interferon β1a: interferon beta (IFNβ) subtype β1a
Dose-dependent inhibition of SARS-HCoV plaque formation: dose-dependent inhibition
